Anti-infective test results gathered from many reports (values: NIAID ChemDB through PubChem).

Common to all: whole-cell or culture tests; species: Hepatitis C virus; cell line: Huh7; endpoint: EC50

a–b is a range or a potency band. Blank or dashed fields: not listed here. Neighbouring rows are from separate reports. ECn is the concentration giving n% inhibition of infection, replication or growth.

smiles,strain or isolate,changes,method,conditions,value
C[C@@H]1C(=O)O[C@@H]2C3=CC(=O)C4OC4[C@]3(C)CC[C@@H]12,,,replicon,,>10 µM
C[C@@]1(O)[C@H](O)[C@@H](CO)O[C@H]1n1ccc(N)nc1=O,GT1b,,luciferase / replicon,,0.7671 µM
N#Cc1c(-c2ccc(F)cc2)nc(NCc2nc3ccccc3[nH]2)[nH]c1=O,,,replicon / PCR,,0.277 µM
CO[C@@H]1[C@H](O)[C@@H](CO)O[C@H]1n1ccc(N)nc1=O,,,,24 h,21.2 µM
CN(C)Cc1c(C(=O)O)sc2c(C3CCCCC3)c(-c3ccc(Cl)cc3)n(CC(=O)N3CCOCC3)c12,,,,,1.9 µM
C=C1C(=O)O[C@@H]2C[C@@]3(C)CCC[C@H](C)C3=C[C@H]12,,,replicon,,2.03 µM
O=C(O)c1c(-c2ccccc2Cl)nc(NCc2nc3ccccc3[nH]2)[nH]c1=O,,,replicon / PCR,,0.546 µM
Fc1ccccc1-c1nc2ccn(Cc3ccc(-c4ccc(C(F)(F)F)cc4C(F)(F)F)nn3)cc-2n1,GT1b,,luciferase / replicon,,0.0032 µM
C[C@@]1(O)[C@H](O)[C@@H](CO)O[C@H]1n1cnc2c(N)ncnc21,2b,,luciferase,,0.2935 µM
N#Cc1c(-c2ccc(Cl)cc2)nc(NCc2nc3ccccc3[nH]2)[nH]c1=O,,,replicon / PCR,,0.235 µM
C=C1C(=O)O[C@@H]2C[C@@H](C)[C@@H]3C=CC(=O)[C@@]3(C)[C@@H](O)[C@H]12,,,replicon,,1.25 µM
C[C@H](NP(=O)(OC[C@H]1O[C@@H](n2cnc3c(=O)[nH]c(N)nc32)[C@](C)(O)[C@@H]1F)Oc1ccccc1)C(=O)OC1CCCCC1,,,luciferase,,1–10 µM
O=C(O)c1c(-c2ccc(O)cc2)nc(NCc2nc3ccccc3[nH]2)[nH]c1=O,,,replicon / PCR,,0.512 µM
C=C1CCOC1=O,,,replicon,,>10 µM
CNC(=O)c1c(-c2ccc(F)cc2)oc2cc(N(CCO)S(C)(=O)=O)c(C3CC3)cc12,GT1b,,luciferase / replicon,,0.0166 µM
C[C@H](NP(=O)(OC[C@H]1O[C@@H](n2cnc3c(=O)[nH]c(N)nc32)[C@](C)(O)[C@@H]1F)Oc1ccccc1Cl)C(=O)OCC(C)(C)C,,,luciferase,,10–100 µM
O=C(O)c1c(-c2ccc(Cl)cc2)nc(SCc2nc3ccccc3[nH]2)[nH]c1=O,,,replicon / PCR,,0.356 µM
CN1CCCC(CNC(=O)Cn2c(-c3ccc(Cl)cc3)c(C3CCCCC3)c3sc(C(=O)O)cc32)C1,,,,,0.77 µM
C/C1=C\CC[C@@]2(C)O[C@H]2[C@H]2OC(=O)[C@@H](CN3CCC[C@H]3C(=O)O)[C@@H]2CC1,,,replicon,,2.24 µM
CC(C)(C)NC(=O)N[C@H](C(=O)N1C[C@H]2[C@@H]([C@H]1C(=O)NC(CC1CCC1)C(=O)C(N)=O)C2(C)C)C(C)(C)C,1b H77,R1135K S1560G K1691R T1993A G2042C L2155P P2166L,PCR,,0.52 µM
C=C1CC(=O)OC1=O,,,replicon,,>10 µM
CCOc1nc(N)nc2c1ncn2[C@@H]1O[C@H](COP(=O)(N[C@@H](C)C(=O)OC(C)C)Oc2ccccc2)[C@@H](F)[C@@]1(C)O,,,luciferase,,<1 µM
CC(=O)Nc1ccc(-c2ccc(Cl)cc2)c(COc2ccc(-c3nc4cc(C(=O)O)ccc4n3C3CCCCC3)cc2)c1,3a,,luciferase,,0.6103 µM
CCOc1nc(N)nc2c1ncn2[C@@H]1O[C@H](COP(=S)(N[C@@H](C)C(=O)OCC(C)(C)C)Oc2ccccc2)[C@@H](F)[C@@]1(C)O,,,luciferase,,1–10 µM
CN(C)CCN1C(=O)Cn2c(c(C3CCCCC3)c3sc(C(=O)O)cc32)-c2ccccc21,,,,,0.7 µM